The numbers were not newly measured in patent US9474793B2, “Vaccines and methods for prevention and treatment of drug-resistant HIV-1 and hepatitis B virus” (The United States of America, as represented by the …, priority 2005, dated 2016), which cites them from elsewhere.

The series relates to HIV variant with M184I or M184V in RT. The conditions noted are these: M184I / M184V mutations; Kanagawa et al. 1993; cited from earlier work.

Each structure is given as a SMILES string.

For `Nc1ccn([C@H]2CS[C@@H](CO)O2)c(=O)n1` [lamivudine, (−)2′,3′-dideoxy-3′-thiacytidine], the decrease in sensitivity is listed as > 1,000 fold.
